Results of unrelated studies side by side (data: NIAID ChemDB).

All rows: growth or infection tests; agent: Mycobacterium tuberculosis

ECn: concentration that inhibits the pathogen or its effect by n%.

structure,tested at,read-out,strain or isolate,mutations,method,value
CCOC(=O)C1=C(C)N(c2ccc(OC)cc2)C(C)=C(C(=O)OCC)C1c1ccc(-c2ccc(F)c(Cl)c2)o1,6.25 µg/mL,inhibition,H37Rv,-,BACTEC / radiometric,61%
Cc1nc2c(C)cccn2c1C(=O)NNC(=S)Nc1ccccc1,-,MIC,H37Rv,-,-,12.5 µM
CCc1nnc2sc3c(Cl)c4nn5c(CC)nnc5sc4c(Cl)c3nn12,12.5 µg/mL,inhibition,H37Rv,-,BACTEC,33%
CC(=O)NC[C@H]1CN(c2cc(F)c(N3C[C@@H]4OC(=O)N(C)[C@@H]4C3)c(F)c2)C(=O)O1,-,MIC100,H37Rv,-,resazurin,0.62 µM
COC(=O)c1c(C(=O)OC)c2ccc3c4ncccc4ccc3n2c1C(=O)c1ccccc1,-,MIC,H37Rv,-,reporter gene / fluorescence,>20 µM
CC1OC(n2ccc(NC(=O)c3ccc(NC(=O)C(C)(N)CO)cc3)nc2=O)CCC1OC1OC(C)C(N(C)C)C(O)C1O,-,MIC,ETA-R,-,-,0.8 µg/mL
CCCc1cc(=O)oc2c(C(O)CC)c(OCC)c3c(c12)OC(C)(C)CC3,-,MIC,H37Ra,-,-,>128 µg/mL
CCOC(=O)C1=C(C)N(c2ccc([N+](=O)[O-])cc2)C(C)=C(C(=O)OCC)C1c1ccc(-c2ccc(F)c(Cl)c2)o1,6.25 µg/mL,inhibition,H37Rv,-,BACTEC / radiometric,59%
CC(C)(C)c1cc(C(C)(C)C)c2oc(-c3cccc(C(F)(F)F)c3)nc2c1,6.25 µg/mL,inhibition,H37Rv,-,BACTEC,<90%
NNC(=O)c1ccncc1,-,MIC,MDR,-,resazurin,25–50 µg/mL
CC(=O)c1ccccc1-n1ccc2c3c(N)nc(N)nc3ccc21.Cl,-,EC50,ATCC 2724,-,resazurin,2.57 µM
COC(=O)c1c(C(=O)OC)c2ccc3c4ncccc4ccc3n2c1C(=O)c1ccc([N+](=O)[O-])cc1,-,EC50,H37Rv,-,reporter gene / fluorescence,>100 µM
C=CCc1cc(OC)c(OC(C)=O)c(OC(C)=O)c1,-,MIC,H37Rv,-,agar / visual reading,208.3 µM
Cc1nc2c(C)cccn2c1C(=O)NNC(=S)Nc1ccc(Br)cc1,-,MIC,H37Rv,-,-,>12.5 µM
CC(C)(C)c1cc(C(C)(C)C)c2oc(-c3ccccc3[N+](=O)[O-])nc2c1,6.25 µg/mL,inhibition,H37Rv,-,BACTEC,<90%
CP(=O)(NN)c1ccccc1,12.5 µg/mL,inhibition,H37Rv,-,BACTEC,0%
CCCCCc1ccc(Oc2ccccc2Br)c(O)c1,-,MIC100,-,-,-,3.125 µg/mL
CC[C@]12C[N+]3([O-])CCc4c([nH]c5ccccc45)[C@@](C(=O)OC)(c4cc5c(cc4OC)N(C)C4C56CCN5CC=C[C@](CC)([C@H]56)[C@@H](OC(C)=O)[C@]4(O)C(=O)OC)C[C@@H](C3)[C@H]1O2,-,MIC,H37Rv,-,BACTEC,≥12.5 µg/mL
CCCCCOc1cccc(NC(=O)OCCN(C)C)c1,-,MIC,My 331/88,-,-,62.5 µM
Nc1ncnc2c1c(-c1ccc3ccccc3c1)cn2[C@@H]1O[C@H](CO)[C@@H](O)[C@H]1O,-,EC50,Praha 131,-,-,8 µM
O=C(c1ccncc1)N1N=C(c2cccs2)CC1(O)C(Cl)(Cl)Cl,-,MIC,H37Rv,-,-,>257 µM
O=C(/C=C/c1cccc(O)c1)/C=C/c1cccc(O)c1,12.5 µg/mL,inhibition,H37Rv,-,BACTEC,21%
NC(=O)c1cnccn1,-,MIC,21 strains (PZA-susceptible),-,-,25–400 µg/mL
CO[C@H]1/C=C/O[C@@]2(C)Oc3c(C)c(O)c4c(=O)c(c5oc6cc(N7CCN(CC(C)C)CC7)cc(=O)c6nc5c4c3=C2O)NC(=O)/C(C)=C\C=C\[C@H](C)[C@H](O)[C@@H](C)[C@@H](O)[C@@H](C)[C@H](OC(C)=O)[C@@H]1C,-,MIC,Erdman,-,-,0.15 µg/mL
O=C(c1ccncc1)N1N=C(c2ccco2)CC1(O)C(F)(F)F,-,MIC,H37Rv,-,-,9.6 µM
CCOC(=O)C1=C(C)N(c2ccc(Cl)cc2)C(C)=C(C(=O)OCC)C1c1ccc(-c2ccc(F)c(Cl)c2)o1,6.25 µg/mL,inhibition,H37Rv,-,BACTEC / radiometric,12%
Nc1ncnc2c1c(-c1cccc3c1oc1ccccc13)cn2[C@@H]1O[C@H](CO)[C@@H](O)[C@H]1O,-,MIC,My 331/88,-,broth dilution,16 µM
Cc1ccc(C(=O)[C@@H]2[C@H]3C(=O)N(c4ccccc4)C(=O)[C@H]3[C@H]3C=Cc4c(ccc5cccnc45)N32)cc1,-,EC50,H37Rv,-,reporter gene / fluorescence,>200 µM
CCCCCc1ccc(Oc2ccccc2C)c(O)c1,-,MIC100,-,-,-,3.125 µg/mL
Cc1cn2c(C(=O)NCc3ccc(N4CCN(c5ccc(C(F)(F)F)cn5)CC4)c(F)c3)c(C)nc2s1,-,MIC,H37Rv,QcrB1 A317V,resazurin / fluorescence,0.6 µM
CC(C)(C)c1cc(C(C)(C)C)c2oc(-c3ccc(Br)cc3)nc2c1,6.25 µg/mL,inhibition,H37Rv,-,BACTEC,94%
COc1ccc(C(=O)[C@@H]2C[C@H](C#N)[C@@H]3C=Cc4c(ccc5cccnc45)N23)cc1,-,MIC,H37Rv,-,reporter gene / fluorescence,>200 µM
CC(C)(C)c1ccc(COC(Cn2ccnc2)c2ccc(Cl)cc2Cl)cc1,-,MIC,CIP103471,-,-,1 µg/mL
COC(=O)C1=C(C)N(c2ccccc2Cl)C(C)=C(C(=O)OC)C1c1ccc(-c2ccc(F)c(Cl)c2)o1,6.25 µg/mL,inhibition,H37Rv,-,BACTEC / radiometric,62%
CC(C)=NNC(=O)c1cccnc1,12.5 µg/mL,inhibition,H37Rv,-,BACTEC,-3%
C=CCOc1cc2c(c3oc(=O)cc(CCC)c13)[C@@H](O)[C@H](C)[C@@H](C)O2,-,MIC,H37Ra,-,-,>128 µg/mL
CNC(=S)NNc1ncnc2c1ncn2-c1ccc(C)cc1,12.5 µg/mL,inhibition,H37Rv,-,BACTEC,0%
CC(=O)NC[C@H]1CN(c2cc(F)c(N3CC4CCSCCC4C3)c(F)c2)C(=O)O1,-,MIC100,H37Rv,-,resazurin,0.62–1.25 µM
Cc1cc2c(=O)cc(-c3ccccc3Cl)oc2c(C(=O)O)c1C,12.5 µg/mL,inhibition,H37Rv,-,BACTEC,13%
Clc1ccc(C(Cn2ccnc2)OCc2cccc3ccccc23)c(Cl)c1,-,MIC,CIP103471,-,-,1 µg/mL
CC(C)(C)c1cc(C(C)(C)C)c2oc(-c3ccccn3)nc2c1,-,MIC,H37Rv,-,-,64 µg/mL
Clc1ccc(C(Cn2ccnc2)OCc2cccc3ccccc23)cc1,-,MIC,CIP103471,-,-,4 µg/mL
O=c1c(Cl)c2sc3ccc(Cl)cc3nc-2c2ccccc12,-,MIC bound,H37Rv,-,BACTEC,>12.5 µg/mL
c1ccc(C(Cn2ccnc2)OCc2cccc3ccccc23)cc1,-,MIC,CIP103471,-,-,1 µg/mL
CCCCCCCOc1cccc(NC(=O)OCCN2CCOCC2)c1,-,MIC,My 331/88,-,-,8 µM
CC(C)c1cc(=O)c2cc3[nH]c4ccccc4c3cc2[nH]1,-,MIC,H37Rv,-,-,12.5 µg/mL
C#CCOc1cc2c(c3oc(=O)cc(CCC)c13)[C@@H](O)[C@H](C)[C@@H](C)O2,-,MIC,H37Ra,-,-,>128 µg/mL
O=C(OCCN=c1c2ccccc2ccc2ccccc12)c1ccccc1,-,MIC bound,H37Rv,-,BACTEC,>12.5 µg/mL
CCCCCc1ccc(Oc2ccccc2F)c(O)c1,-,MIC100,-,-,-,1.56 µg/mL
COC(=O)C1=C(C)N(c2ccc(OC)cc2)C(C)=C(C(=O)OC)C1c1ccc(-c2ccc(F)c(Cl)c2)o1,6.25 µg/mL,inhibition,H37Rv,-,BACTEC / radiometric,14%
CO[C@H]1/C=C/O[C@@]2(C)Oc3c(C)c(O)c4c(O)c(c(/C=N/N5CCN(C)CC5)c(O)c4c3C2=O)NC(=O)/C(C)=C\C=C\[C@H](C)[C@H](O)[C@@H](C)[C@@H](O)[C@@H](C)[C@H](OC(C)=O)[C@@H]1C,-,MIC,H37Rv,-,reporter gene / fluorescence,0.0055 µM
CC(C)CCCC(C)C1CCC2C3CCC4N(C)C(C)CCC4(C)C3CCC12C,-,MIC bound,H37Rv,-,BACTEC,>12.5 µg/mL
CCCc1cc(=O)oc2c(C(=O)CC)c(OC(C)=O)c3c(c12)OC(C)(C)CC3,-,MIC,H37Ra,-,-,>128 µg/mL
COC(=O)C1=C(C)N(c2ccc(F)cc2)C(C)=C(C(=O)OC)C1c1ccc(-c2ccc(F)c(Cl)c2)o1,6.25 µg/mL,inhibition,H37Rv,-,BACTEC / radiometric,63%
COc1cccc(NC(=O)OCCN2CCCCC2)c1,-,MIC,My 331/88,-,-,1000 µM
CNc1nc(N)cc(Nc2ccc(Br)cc2)n1,-,MIC bound,H37Rv,-,BACTEC,≤12.5 µg/mL
C#CCOc1c2c(c3c(CCC)cc(=O)oc3c1C(=O)CC)OC(C)(C)CC2,-,MIC,H37Ra,-,-,>128 µg/mL
CC1=c2c(oc3cc(O)c(Nc4c(C)cc(O)cc4O)c(C)c23)=CC(=O)C1=Nc1c(C)cc(O)cc1O,12.5 µg/mL,inhibition,H37Rv,-,BACTEC,8%
CC(=O)NC[C@H]1CN(c2cc(F)c(N3CC4CCS(=O)(=O)CCC4C3)c(F)c2)C(=O)O1,-,MIC100,H37Rv,-,resazurin,0.31 µM
CN(C)CCn1ncc(Sc2cc([N+](=O)[O-])ccc2N)c(Cl)c1=O,-,MIC,H37Rv,-,BACTEC,≥12.5 µg/mL
Cc1ccc(-c2nc3cc(C(C)(C)C)cc(C(C)(C)C)c3o2)o1,6.25 µg/mL,inhibition,H37Rv,-,BACTEC,<90%
NC(=O)c1nnn(-c2ccccc2)c1N,-,MIC bound,H37Rv,-,BACTEC,>12.5 µg/mL
Cc1ccc(C2=NN(C(=O)c3ccncc3)C(O)(C(F)(F)F)C2)cc1,-,MIC,RGH101,-,-,8.94 µM
CCCc1cc(=O)oc2c3c(cc(OC)c12)O[C@H](C)[C@H](C)[C@@H]3O,-,MIC,H37Ra,-,-,>128 µg/mL
Cc1cn2c(C(=O)NCc3ccc(Oc4ccc(F)cc4)cc3)c(C)nc2s1,-,MIC,H37Rv,-,luminescence,25.7 µM
COc1c2occc2c(CN)c2ccc(=O)oc12,12.5 µg/mL,inhibition,H37Rv,-,BACTEC,9%
CCCc1cc(=O)oc2c(C(=O)CC)c(OCOC)c3c(c12)OC(C)(C)CC3,-,MIC,H37Ra,-,-,>128 µg/mL
CO[C@H]1/C=C/O[C@@]2(C)Oc3c(C)c(O)c4c(O)c(c(/C=N/N5CCN(C6CCCC6)CC5)c(O)c4c3C2=O)NC(=O)/C(C)=C\C=C\[C@H](C)[C@H](O)[C@@H](C)[C@@H](O)[C@@H](C)[C@H](OC(C)=O)[C@@H]1C,-,MIC,Erdman,-,-,0.6 µg/mL
Cc1cn2c(C(=O)NCc3ccc(C(F)(F)F)cc3)c(C)nc2s1,-,MIC,H37Rv,-,resazurin / fluorescence,0.061 µM
COC(=O)C1=C(C)N(c2cccc(Cl)c2)C(C)=C(C(=O)OC)C1c1ccc(-c2ccc(F)c(Cl)c2)o1,6.25 µg/mL,inhibition,H37Rv,-,BACTEC / radiometric,27%
CC[C@@H](CO)NCCN[C@@H](CC)CO,-,MIC,H37Rv,-,agar / visual reading,30.6 µM
CC(=O)c1ccc2oc3ccc4c(c3c2c1)CCC(C)(C)O4,-,MIC95,H37Rv,-,broth dilution / resazurin,340 µM
Cc1ccc(C(Cn2ccnc2)OCc2cccc3ccccc23)cc1,-,MIC,CIP103471,-,-,0.5 µg/mL
Nc1nc(N)c2c(ccc3c2ccn3Cc2ccc([N+](=O)[O-])cc2)n1,-,EC50,ATCC 2724,-,resazurin,>99 µM
Cc1ccc(-c2nc3cc(C(C)(C)C)cc(C(C)(C)C)c3o2)cc1,6.25 µg/mL,inhibition,H37Rv,-,BACTEC,<90%
C=C1[C@@H](C)[C@H]2[C@H](Cc3ccccc3)NC(=O)[C@]23[C@H](OC(C)=O)/C=C/[C@@](C)(O)C(=O)[C@@H](C)C/C=C/[C@H]3[C@@H]1O,12.5 µg/mL,inhibition,H37Rv,-,BACTEC,17%
CCCCCOc1ccccc1NC(=O)OCCN1CCCCC1,-,MIC,My 331/88,-,-,32 µM
Cc1cn2c(C(=O)NCc3ccc(N4CCC(c5ccc(OC(F)(F)F)cc5)CC4)cc3)c(C)nc2s1,-,MIC,H37Rv,QcrB5 M342I,resazurin / fluorescence,<0.024 µM
CC(C)(C)OC(=O)CCC(NC(=O)OCC1c2ccccc2-c2ccccc21)C(=O)NC(Cc1c[nH]c2ccccc12)C(=O)NC(CCCCNC(=O)OC(C)(C)C)C(=O)N1CCCC1C(=O)NCC(N)=O,6.25 µg/mL,inhibition,H37Rv,-,resazurin,11%
COC(=O)c1c(C(=O)OC)c2ccc3c4ncccc4ccc3n2c1C(=O)c1ccc(Cl)cc1,-,EC90,H37Rv,-,reporter gene / fluorescence,>50 µM
CCOC(=O)C1Oc2ccc([N+](=O)[O-])cc2C1(C)O,12.5 µg/mL,inhibition,H37Rv,-,BACTEC,-10%
CCCCCc1ccc(Oc2c(C)cccc2C)c(O)c1,-,MIC100,-,-,-,100 µg/mL

Neighbouring rows are from separate reports. An empty or dashed field is not shown. MIC bound: limit read from a one-dose screen. a–b is a range or a potency band. A number after MIC or MFC names an inhibition level or a share of isolates. Inhibition is in % at the dose shown (toxicity tests: loss of growth or viability).